A mixed list of measured activities; the numbers were collected in NIAID ChemDB.

Common to all: whole-cell or culture tests; organism: HIV-1; cells: MT-4; read-out: EC50

Blank or dashed fields: not listed here. Conditions beyond the fields shown may differ between rows. ECn: concentration that inhibits the pathogen or its effect by n%.

structure,strain,mutations,read by,result
O=S1(=O)NC(Cc2ccc(Cl)cc2Cl)=CC(=NC2CCN(Cc3ccc(F)cc3)CC2)N1,IIIB,-,MTT,31.66 µM
Cc1ccc2snc(N=Cc3ccccc3Cl)c2c1,IIIB,-,cytopathic effect / MTT,>8 µM
O=C(N[C@H]1c2ccccc2C[C@H]1O)[C@H](Cc1ccccc1)C[C@H](O)CN1CCN(Cc2cccnc2)C[C@H]1C(=O)NCC(F)(F)F,NL4-3,-,p24,<0.062 µM
CCOCn1c(Cc2ccccc2)c(C(C)C)c(=O)[nH]c1=O,Recombinant,RT-V106A,cytopathic effect,0.199 µM
CC(C)=CCN1Cc2cccc3[nH]c(=O)n(c23)CC1C,IIIB,-,cytopathic effect / MTT,13 µM
CS(=O)(=O)c1ccc(CN2CCC(N=C3C=C(Cc4cccc5ccccc45)NS(=O)(=O)N3)CC2)cc1,RES056,RT-K103N Y181C,MTT,>232 µM
COc1ccc(/C=N/c2nccs2)cc1,IIIB,-,cytopathic effect / MTT,>100 µM
CC(C)(C)NC(=O)[C@@H]1C[C@@H]2CCCC[C@@H]2CN1C[C@@H](O)[C@H](Cc1ccccc1)NC(=O)[C@H](CC(N)=O)NC(=O)c1ccc2ccccc2n1,NL4-3 B,-,cytopathic effect / MTT,0.012 µM
Nc1ccn([C@H]2CC[C@@H](CO)O2)c(=O)n1,IIIB,-,cytopathic effect / MTT,0.137 µM
CC(C)(C)NC(=O)[C@@H]1C[C@@H]2CCCC[C@@H]2CN1C[C@@H](O)[C@H](Cc1ccccc1)NC(=O)[C@H](CC(N)=O)NC(=O)c1ccc2ccccc2n1,NL4-3.C14 (PR L10F V32I M46I I47V I84V T91S),PR-L10F V32I M46I I47V I84V T91S,p24,0.003 µM
O=c1[nH]cnc2c1ncn2[C@H]1CC[C@@H](CO)O1,HXB2-D184 (RT-M184V),RT-M184V,p24,75 µM
CCOc1ccc2nc(/N=C/c3ccc(O)cc3)sc2c1,IIIB,-,cytopathic effect / MTT,>100 µM
CC(C)(c1cc2cnccc2o1)N1CCN(C[C@@H](O)C[C@@H](Cc2ccccc2)C(=O)N[C@H]2c3ccccc3OC[C@H]2O)[C@H](C(=O)NCC2CC2)C1,NL4-3,-,p24,<0.046 µM
CC[C@H](C)[C@@H](C(=O)O)n1sc2ccccc2c1=O,PR-L10R M46I L63P V82T I84V,-,p24 / RT activity,2.2 µM
COc1ccc(CN2CCC(N=C3C=C(Cc4ccc(Cl)cc4Cl)NS(=O)(=O)N3)CC2)cc1,RES056,RT-K103N Y181C,MTT,>109 µM
C=CCN1Cc2cccc3[nH]c(=O)n(c23)C[C@@H]1C,IIIB,-,cytopathic effect / MTT,70 µM
Cc1ccc2snc(N=Cc3cccc(Cl)c3)c2c1,IIIB,-,cytopathic effect / MTT,>7 µM
CC(C)=CCOc1cc(NC(=S)c2ccoc2C)ccc1Cl,Recombinant,RT-V106A,cytopathic effect,0.119 µM
Cc1cn([C@H]2C[C@H](N=[N+]=[N-])[C@@H](CO)O2)c(=O)[nH]c1=O,IIIB,-,cytopathic effect / MTT,0.0015 µM
CC(C)=CCN1Cc2cc(Cl)cc3[nH]c(=O)n(c23)C[C@@H]1C,Recombinant,RT-V106A,cytopathic effect,1.2 µM
CC(C)(c1cc2cnccc2o1)N1CCN(C[C@@H](O)C[C@@H](Cc2ccccc2)C(=O)N[C@H]2c3ccccc3OC[C@H]2O)[C@H](C(=O)NC2CC2)C1,NL4-3,-,p24,<0.062 µM
Clc1ccccc1/C=N/c1nc2ccccc2s1,IIIB,-,cytopathic effect / MTT,>100 µM
N#Cc1ccccc1CN1CCC(N=C2C=C(Cc3cccc4ccccc34)NS(=O)(=O)N2)CC1,RES056,RT-K103N Y181C,MTT,>108 µM
Nc1ccn([C@H]2CC[C@@H](CO)O2)c(=O)n1,HXB2D,-,p24,0.45 µM
CC(C)(c1cc2cnccc2o1)N1CCN(C[C@@H](O)C[C@@H](Cc2ccccc2)C(=O)N[C@H]2c3ccccc3OC[C@H]2O)[C@H](C(=O)NCc2cccs2)C1,NL4-3,-,p24,<0.094 µM
COc1ccc(-c2csc(/N=C/c3ccc(O)c(OC)c3)n2)cc1,IIIB,-,cytopathic effect / MTT,>100 µM
COc1ccc2c(c1)N(C(=O)OC(C)C)[C@@H](CSC)C(=S)N2,Recombinant,RT-P225H,cytopathic effect,0.004 µM
N#Cc1ccc(CN2CCC(N=C3C=C(Cc4cccc5ccccc45)NS(=O)(=O)N3)CC2)cc1,IIIB,-,MTT,31.45 µM
Cc1c(O)cccc1C(=O)N[C@@H](CSc1ccccc1)[C@H](O)CN1C[C@H]2CCCC[C@H]2C[C@H]1C(=O)NC(C)(C)C,NL4-3 B,-,cytopathic effect / MTT,0.062 µM
O=S1(=O)NC(Cc2cccc3ccccc23)=CC(=NC2CCN(Cc3ccccc3)CC2)N1,IIIB,-,MTT,117 µM
Cc1cn([C@H]2C[C@H](N=[N+]=[N-])[C@@H](CO)O2)c(=O)[nH]c1=O,NL4 Aco-HSA-resistant,-,cytopathic effect / MTT,0.01 µg/mL
N#Cc1cccc(CN2CCC(N=C3C=C(Cc4cccc5ccccc45)NS(=O)(=O)N3)CC2)c1,IIIB,-,MTT,>113 µM
COc1cc(C(=O)Sc2ccccc2C(=O)NCCC(N)=O)cc(OC)c1OC,IIIB,-,luminescence,2.2 µM

For reference, 2 entries again:

{"structure": "CC(C)(c1cc2cnccc2o1)N1CCN(C[C@@H](O)C[C@@H](Cc2ccccc2)C(=O)N[C@H]2c3ccccc3OC[C@H]2O)[C@H](C(=O)NCc2cccs2)C1", "strain": "NL4-3", "read by": "p24", "result": "<0.094 µM"}
{"structure": "CC(C)(C)NC(=O)[C@@H]1C[C@@H]2CCCC[C@@H]2CN1C[C@@H](O)[C@H](Cc1ccccc1)NC(=O)[C@H](CC(N)=O)NC(=O)c1ccc2ccccc2n1", "strain": "NL4-3.C14 (PR L10F V32I M46I I47V I84V T91S)", "mutations": "PR-L10F V32I M46I I47V I84V T91S", "read by": "p24", "result": "0.003 µM"}